Data source: PubChem BioAssay AID624099 (ICCB-Longwood, 2012)
The whole screen tested about 21,000 reagents; this is a part drawn at random. 497 of them (2.4%) count as active. 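Higher z means weaker E2 silencing; only reporter increases were scored, and knock-downs that hurt cell survival may mask genuine repressor factors.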 Entries without a mark were called inactive. Reagents against one gene are numbered here. No sequences are given here.

- Test: 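Knock-downs relieving repression by E2 of an HPV18 LCR luciferase reporter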 (primary screen)
- Cells: human C33A cervical carcinoma cells (HPV-negative) stably expressing BPV1 E2 and an HPV18 LCR luciferase reporter
- Knock-down reagent: siRNA pool against human genes, 40 nM
- Duration: 72 h
- Measurement: 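HPV18 LCR reporter light per well, converted to plate-wise z-scores that exclude control wells, and averaged over triplicate plates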
- Direction: mean z-score and z-score: higher = stronger reporter signal, weaker E2 silencing
- Hit rule: 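Mean z ≥ 2 together with z ≥ 2 in two or more of the three replicates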

The first 2 entries, ahead of the listing:
NRN1L (neuritin 1 like) | mean z-score: 0.88; z-score, replicate A: 1.07; z-score, replicate B: 0.73; z-score, replicate C: 0.85
RAP2B (RAP2B, member of RAS oncogene family) | mean z-score: -0.16; z-score, replicate A: -0.11; z-score, replicate B: 0.03; z-score, replicate C: -0.41

The listing, from the first entry:
NRN1L (neuritin 1 like) | mean z-score: 0.88; z-score, replicate A: 1.07; z-score, replicate B: 0.73; z-score, replicate C: 0.85
RAP2B (RAP2B, member of RAS oncogene family) | mean z-score: -0.16; z-score, replicate A: -0.11; z-score, replicate B: 0.03; z-score, replicate C: -0.41
A4GNT (alpha-1,4-N-acetylglucosaminyltransferase) | mean z-score: -0.36; z-score, replicate A: -0.48; z-score, replicate B: -0.23; z-score, replicate C: -0.36
ERVFC1-1 (endogenous retrovirus group FC1 member 1, envelope) | mean z-score: -0.07; z-score, replicate A: -0.25; z-score, replicate B: 0.03; z-score, replicate C: 0
WDR89 (WD repeat domain 89) | mean z-score: 1.74; z-score, replicate A: 2; z-score, replicate B: 1.52; z-score, replicate C: 1.71
CYP17A1 (cytochrome P450 family 17 subfamily A member 1) | mean z-score: 0.36; z-score, replicate A: 0.55; z-score, replicate B: 0.11; z-score, replicate C: 0.42
WDR4 | mean z-score: 0.54; z-score, replicate A: 0.47; z-score, replicate B: 0.57; z-score, replicate C: 0.57
ZSCAN23 (zinc finger and SCAN domain containing 23) | mean z-score: 1.85; z-score, replicate A: 1.69; z-score, replicate B: 2.01; z-score, replicate C: 1.97
FABP6 (fatty acid binding protein 6) | mean z-score: 1.93; z-score, replicate A: 2.11; z-score, replicate B: 1.95; z-score, replicate C: 1.72
LOC401883 (retired record) | mean z-score: -1.29; z-score, replicate A: -1.43; z-score, replicate B: -1.04; z-score, replicate C: -1.4
EFCAB3 (EF-hand calcium binding domain 3) | mean z-score: -0.12; z-score, replicate A: 0.4; z-score, replicate B: -0.38; z-score, replicate C: -0.37
RPS3AP21 (RPS3A pseudogene 21) #1 | mean z-score: 0.16; z-score, replicate A: 0.14; z-score, replicate B: -0.01; z-score, replicate C: 0.35
RPS3AP21 (RPS3A pseudogene 21) #2 | mean z-score: -0.16; z-score, replicate A: -0.14; z-score, replicate B: -0.14; z-score, replicate C: -0.21
ADCY1 (adenylate cyclase 1) | mean z-score: 0.01; z-score, replicate A: 0.11; z-score, replicate B: -0.08; z-score, replicate C: 0.01
MDP1 (magnesium dependent phosphatase 1) | mean z-score: -0.63; z-score, replicate A: -0.98; z-score, replicate B: -0.07; z-score, replicate C: -0.82
GABRG3 (gamma-aminobutyric acid type A receptor subunit gamma3) | mean z-score: 0.56; z-score, replicate A: 0.79; z-score, replicate B: 0.48; z-score, replicate C: 0.42
SSX8P (SSX family member 8, pseudogene) | mean z-score: -0.61; z-score, replicate A: -0.35; z-score, replicate B: -0.53; z-score, replicate C: -0.95
CHDH (choline dehydrogenase) | mean z-score: -0.69; z-score, replicate A: -0.45; z-score, replicate B: -0.86; z-score, replicate C: -0.76
JMJD1C (jumonji domain containing 1C) | mean z-score: -0.3; z-score, replicate A: -0.53; z-score, replicate B: -0.32; z-score, replicate C: -0.06
GGA2 | mean z-score: 0.27; z-score, replicate A: 0.29; z-score, replicate B: 0.25; z-score, replicate C: 0.29
HDAC2 (histone deacetylase 2) | mean z-score: 0.31; z-score, replicate A: 0.37; z-score, replicate B: 0.31; z-score, replicate C: 0.24
CARD16 (caspase recruitment domain family member 16) | mean z-score: 0.31; z-score, replicate A: 0.1; z-score, replicate B: 0.56; z-score, replicate C: 0.27
BLID (BH3-like motif containing, cell death inducer) | mean z-score: 0.16; z-score, replicate A: 0.3; z-score, replicate B: 0.13; z-score, replicate C: 0.06
SMAD2 (SMAD family member 2) | mean z-score: 0.44; z-score, replicate A: 0.63; z-score, replicate B: 0.76; z-score, replicate C: -0.06
ZNF518B (zinc finger protein 518B) | mean z-score: -0.2; z-score, replicate A: -0.68; z-score, replicate B: -0.24; z-score, replicate C: 0.33
GRIN1 (glutamate ionotropic receptor NMDA type subunit 1) | mean z-score: -0.45; z-score, replicate A: -0.39; z-score, replicate B: -0.4; z-score, replicate C: -0.55
KCTD4 (potassium channel tetramerization domain containing 4) | mean z-score: 2.07 (active); z-score, replicate A: 1.91; z-score, replicate B: 2.05; z-score, replicate C: 2.27
